Where “and” joins values, the source holds several entries; their conditions need not be identical. Identical values can stand only once.
Key:
[1] = tested on: L929 cells; assay: Cytotoxicity assay (Alamar Blue, 24 h) on L929 fibroblasts; assay type: cell-based, murine; conditions: for SI^A L929: CC50 L929/IC50 ex vivo amastigotes; for SI^P L929: CC50 L929/IC50 promastigotes
Protocol: (§1) HepG2 cells (human hepatocellular carcinoma), VERO cells (African green monkey kidney), and J774.G8 macrophages (murine reticulosarcoma) were maintained in DMEM medium, supplemented with 10% FBS, 1% Pen/Str at 37 °C and 5% CO2 [70, 71]. For the cultivation of L929 fibroblasts (murine fibrosarcoma), RPMI 1640 medium without phenol red, supplemented with 2 mM L-glutamine, 10% FBS, and 1% Pen/Str, was used and maintained under the same conditions of temperature and CO2 as above.
(§2) J774.G8, VERO (10^5 cells/well), HepG2, L929 (0.5 × 10^5 cells/well) cells, and MPMs (3 × 10^5 cells/well) were centrifuged, resuspended in medium, plated in 96-well microplates, and incubated for 24 h under cultivation conditions. Subsequently, they were exposed to different concentrations of the compounds, serially diluted in medium to a final volume of 100 µL/well, and incubated for 24 h at 37 °C and 5% CO2. Cell viability was then assessed using the AB, and data were acquired by spectrophotometry. […] Untreated cells were used as negative controls, and cells exposed to the reference compound (MT) were used as positive controls. The Selectivity Index (SI) was calculated using the ratio SI = CC50 (mammalian cells)/IC50 (promastigote or amastigote forms of L. amazonensis).

[2] = tested on: HepG2 cells; assay: Cytotoxicity assay (Alamar Blue, 24 h) on HepG2 cells; assay type: cell-based, human; conditions: for SI^A HepG2: CC50 HepG2/IC50 ex vivo amastigotes; for SI^P HepG2: CC50 HepG2/IC50 promastigotes
Protocol: as §1, §2

[3] = tested on: VERO cells; assay: Cytotoxicity assay (Alamar Blue, 24 h) on VERO cells; assay type: cell-based, African green monkey; conditions: for SI^A VERO: CC50 VERO/IC50 ex vivo amastigotes; for SI^P VERO: CC50 VERO/IC50 promastigotes
Protocol: as §1, §2

[4] = tested on: J774.G8 cells; assay: Cytotoxicity assay (Alamar Blue, 24 h) on J774.G8 macrophages; assay type: cell-based, murine; conditions: for SI^A J744.G8: CC50 J774.G8/IC50 ex vivo amastigotes; for SI^P J744.G8: CC50 J774.G8/IC50 promastigotes
Protocol: as §1, §2

[5] = tested on: murine peritoneal macrophages—MPMs; assay: Cytotoxicity assay (Alamar Blue, 24 h) on murine peritoneal macrophages; assay type: cell-based, Swiss Webster mice; conditions: for SI^A MPMs: CC50 MPMs/IC50 ex vivo amastigotes; for SI^P MPMs: CC50 MPMs/IC50 promastigotes
Protocol: Murine peritoneal macrophages—MPMs (primary cells)—were isolated from male Swiss Webster mice stimulated with 1 mL of 3% Brewer’s thioglycollate medium, administered intraperitoneally. After 96 h, the animals were euthanized, and the MPMs were collected by peritoneal lavage with approximately 10 mL of RPMI 1640 medium. The cell suspension was centrifuged at 382× g for 10 min, and the pellet was resuspended in medium supplemented with 5% FBS, 1% Pen/Str, and 2 mM L-glutamine. All cell cultures were maintained at 37 °C and 5% CO2 [73]. For the experiments, all cell types were cultured until confluency.
as §2

| Structure (SMILES) | SI^A L929 [1] | SI^P L929 [1] | SI^A HepG2 [2] | SI^P HepG2 [2] | SI^A VERO [3] | SI^P VERO [3] | SI^A J744.G8 [4] | SI^P J744.G8 [4] | SI^A MPMs [5] | SI^P MPMs [5] |
| --- | --- | --- | --- | --- | --- | --- | --- | --- | --- | --- |
| CN(C)c1ccc2nc3ccc(=[N+](C)C)cc-3sc2c1 [MB, methylene blue, reference compound] | 20.55 | 5.24 | 6.13 | 1.56 | 9.01 | 2.30 | 13.18 | 3.36 | 2.30 | 0.59 |
| CCCCCCCCCCCCCCCCOP(=O)([O-])OCC[N+](C)(C)C [Miltefosine, miltefosine, reference compound] | 116.20 | 4.86 | 186.60 | 7.80 | 173.25 | 7.24 | 160.41 | 6.71 | 106.11 | 4.44 |
| CCNc1cc2[s+]c3cc(NCC)c(C)cc3nc2cc1C [NMB, new methylene blue] | 105.35 | 51.71 | 26.90 | 13.20 | 16.82 | 8.25 | 25.75 | 12.64 | 11.76 | 5.77 |
| CCNc1cc2[s+]c3cc(NCC)c(C)cc3nc2cc1C.F[P-](F)(F)(F)(F)F.F[P-](F)(F)(F)(F)F.F[P-](F)(F)(F)(F)F.F[P-](F)(F)(F)(F)F.N#[O+].[Ru+2].c1ccc(-c2ccccn2)nc1.c1ccc(-c2ccccn2)nc1 [NMB-B, new methylene blue B] | 85.54 | 49.32 | 10.84 | 6.25 | 78.47 | 45.25 |  |  | 20.86 | 12.03 |
| CCNc1cc2[s+]c3cc(NCC)c(C)cc3nc2cc1C.F[P-](F)(F)(F)(F)F.F[P-](F)(F)(F)(F)F.F[P-](F)(F)(F)(F)F.F[P-](F)(F)(F)(F)F.N#[O+].[Ru+2].c1cnc2c(c1)ccc1cccnc12.c1cnc2c(c1)ccc1cccnc12 [NMB-P, new methylene blue P] | 326.96 | 52.96 | 76.20 | 12.34 | 521.30 | 84.44 |  |  | > 150 and 155.72 | 25.22 |
